Source: US20140315973
At least one result comes from cells or an extract, where the contact may be indirect.

Sequences of proteins named here, by UniProt entry; tags and fusion partners are left off. Residues count along the entry.
UniProt P09874, 2-1014: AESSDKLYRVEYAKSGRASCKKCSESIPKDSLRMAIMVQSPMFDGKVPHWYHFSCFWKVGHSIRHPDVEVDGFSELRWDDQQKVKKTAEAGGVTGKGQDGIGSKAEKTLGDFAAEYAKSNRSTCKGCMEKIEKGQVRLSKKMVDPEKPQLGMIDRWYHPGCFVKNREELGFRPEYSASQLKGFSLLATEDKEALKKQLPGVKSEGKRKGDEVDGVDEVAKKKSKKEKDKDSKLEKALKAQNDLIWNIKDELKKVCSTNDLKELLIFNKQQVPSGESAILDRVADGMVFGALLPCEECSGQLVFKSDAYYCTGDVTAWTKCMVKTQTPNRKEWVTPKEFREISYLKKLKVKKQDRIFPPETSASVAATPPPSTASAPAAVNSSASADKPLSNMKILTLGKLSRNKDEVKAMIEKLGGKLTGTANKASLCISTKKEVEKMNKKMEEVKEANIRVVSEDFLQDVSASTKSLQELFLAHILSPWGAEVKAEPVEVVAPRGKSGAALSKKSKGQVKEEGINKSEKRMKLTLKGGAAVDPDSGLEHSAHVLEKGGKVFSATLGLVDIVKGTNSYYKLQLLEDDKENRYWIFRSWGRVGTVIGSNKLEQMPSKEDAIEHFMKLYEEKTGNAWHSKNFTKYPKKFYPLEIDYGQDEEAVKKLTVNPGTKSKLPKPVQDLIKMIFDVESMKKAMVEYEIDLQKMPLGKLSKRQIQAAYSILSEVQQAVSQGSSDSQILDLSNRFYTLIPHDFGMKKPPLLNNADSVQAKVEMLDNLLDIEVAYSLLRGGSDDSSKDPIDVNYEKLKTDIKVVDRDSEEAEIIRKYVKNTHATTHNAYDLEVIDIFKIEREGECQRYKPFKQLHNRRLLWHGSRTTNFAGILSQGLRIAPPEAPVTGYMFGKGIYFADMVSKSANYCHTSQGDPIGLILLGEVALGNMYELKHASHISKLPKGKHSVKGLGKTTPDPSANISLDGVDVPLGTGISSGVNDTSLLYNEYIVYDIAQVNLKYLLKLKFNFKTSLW

Molecular target: PARP-1 (Homo sapiens) (UniProt P09874)
Assay: EMSA
Conditions: protein in an extract; protein details: endogenous, HepG2 nuclear lysate; label: 5'-biotin

**Q.** Does “TTGAGGCCTACTTCAAAGACTGTGTG (double strand) [HBV core promoter PARP-1 probe]” bind?
**A.** Result: binds
